Data on 2 compounds can be found in patent US20220202929A1, “DRUG-RESISTANT INFLUENZA VIRUS STRAINS” (President and Fellows of Harvard College, priority 2019, published 2022).

The experiment relates to parent influenza A/WSN/33 (H1N1) strain. Kind of experiment: microbe, parasite or virus in culture. In kind it is cell-based.

On to `CCOC(=O)C1=C[C@@H](OC(CC)CC)[C@H](NC(C)=O)[C@@H](N)C1` [oseltamivir], for which the IC50 – broadly, the concentration at which inhibition is half-maximal – amounted to 58 nM.
In the case of `NC12CC3CC(CC(C3)C1)C2` [amantadine] it was 47 nM.
